Experimental data: PubChem BioAssay AID624099 (ICCB-Longwood, 2012)
Shown is one part, drawn at random, of about 21,000 reagents. 497 of them (2.4%) count as active. 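Higher z means weaker E2 silencing; only reporter increases were scored, and knock-downs that hurt cell survival may mask genuine repressor factors.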 Unmarked entries are inactive.

- Purpose: 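Host factors E2 relies on to silence an HPV18 LCR reporter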 (primary screen)
- System: human C33A cervical carcinoma cells (HPV-negative) stably expressing BPV1 E2 and an HPV18 LCR luciferase reporter
- Knock-down reagent: siRNA pool against human genes, 40 nM
- Duration: 72 h
- Detection: 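HPV18 LCR reporter light per well, converted to plate-wise z-scores that exclude control wells, and averaged over triplicate plates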
- Direction: mean z-score and z-score: higher = stronger reporter signal, weaker E2 silencing
- Rule for the call: 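Mean z ≥ 2 together with z ≥ 2 in two or more of the three replicates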

{"Target gene": "AP1B1 (adaptor related protein complex 1 subunit beta 1)", "mean z-score": 0.73, "z-score, replicate A": 1.26, "z-score, replicate B": 0.3, "z-score, replicate C": 0.65}
{"Target gene": "SPAG8 (sperm associated antigen 8)", "mean z-score": -0.28, "z-score, replicate A": -0.17, "z-score, replicate B": -0.4, "z-score, replicate C": -0.28}
{"Target gene": "SLC52A1", "mean z-score": -1.3, "z-score, replicate A": -1.3, "z-score, replicate B": -1.15, "z-score, replicate C": -1.46}
{"Target gene": "TAMALIN (trafficking regulator and scaffold protein tamalin)", "mean z-score": -0.26, "z-score, replicate A": 0.1, "z-score, replicate B": -0.4, "z-score, replicate C": -0.5}
{"Target gene": "RILPL2 (Rab interacting lysosomal protein like 2)", "mean z-score": 0.44, "z-score, replicate A": 0.16, "z-score, replicate B": 0.59, "z-score, replicate C": 0.57}
{"Target gene": "FLRT3 (fibronectin leucine rich transmembrane protein 3)", "mean z-score": -0.28, "z-score, replicate A": -0.22, "z-score, replicate B": -0.31, "z-score, replicate C": -0.29}
{"Target gene": "RAB18 (RAB18, member RAS oncogene family)", "mean z-score": -0.25, "z-score, replicate A": -0.38, "z-score, replicate B": -0.24, "z-score, replicate C": -0.12}
{"Target gene": "BIN1 (bridging integrator 1)", "mean z-score": 0.03, "z-score, replicate A": 0.44, "z-score, replicate B": -0.24, "z-score, replicate C": -0.13}
{"Target gene": "LOC389358 (retired record)", "mean z-score": 1.04, "z-score, replicate A": 1.1, "z-score, replicate B": 1.11, "z-score, replicate C": 0.91}
{"Target gene": "CCDC85A (coiled-coil domain containing 85A)", "mean z-score": 1.8, "z-score, replicate A": 2.12, "z-score, replicate B": 1.8, "z-score, replicate C": 1.49}
{"Target gene": "PRR15 (proline rich 15)", "mean z-score": 0.83, "z-score, replicate A": 1.08, "z-score, replicate B": 0.78, "z-score, replicate C": 0.62}
{"Target gene": "WWOX (WW domain containing oxidoreductase)", "mean z-score": -0.91, "z-score, replicate A": -1.07, "z-score, replicate B": -0.91, "z-score, replicate C": -0.76}
{"Target gene": "LOC402508 (retired record)", "mean z-score": 0.08, "z-score, replicate A": -0.08, "z-score, replicate B": -0.15, "z-score, replicate C": 0.47}
{"Target gene": "TBC1D15 (TBC1 domain family member 15)", "mean z-score": 0.29, "z-score, replicate A": 0.38, "z-score, replicate B": 0.4, "z-score, replicate C": 0.07}
{"Target gene": "TSPYL5 (TSPY like 5)", "mean z-score": -0.62, "z-score, replicate A": -0.3, "z-score, replicate B": -0.68, "z-score, replicate C": -0.88}
{"Target gene": "PVR (PVR cell adhesion molecule)", "mean z-score": -0.03, "z-score, replicate A": -0.18, "z-score, replicate B": 0.06, "z-score, replicate C": 0.03}
{"Target gene": "FBXO10 (F-box protein 10)", "mean z-score": -1.02, "z-score, replicate A": -1, "z-score, replicate B": -1.12, "z-score, replicate C": -0.93}
{"Target gene": "SIPA1L3 (signal induced proliferation associated 1 like 3)", "mean z-score": 0.76, "z-score, replicate A": 0.81, "z-score, replicate B": 0.68, "z-score, replicate C": 0.78}
{"Target gene": "TP53TG1 (TP53 target 1)", "mean z-score": 0.51, "z-score, replicate A": 0.58, "z-score, replicate B": 0.27, "z-score, replicate C": 0.67}
{"Target gene": "RNF212 (ring finger protein 212)", "mean z-score": 0.11, "z-score, replicate A": -0.06, "z-score, replicate B": 0.04, "z-score, replicate C": 0.35}
{"Target gene": "LOC392177 (retired record)", "mean z-score": -0.78, "z-score, replicate A": -1.03, "z-score, replicate B": -0.7, "z-score, replicate C": -0.61}

2 entries from above, showing only “z-score, replicate A”.
RNF212 (ring finger protein 212)	-0.06
LOC392177 (retired record)	-1.03
